Anti-infective test results gathered from many reports (values: NIAID ChemDB through PubChem).

Shared fields: enzyme or target tests; species: HIV-1; protein: Protease; method: HPLC; read-out: inhibition

Blank or dashed fields: not listed here. Inhibition is in % at the dose shown (toxicity tests: loss of growth or viability). Conditions beyond the fields shown may differ between rows.

compound,tested at,conditions,strain or isolate,value
COc1ccc(-c2cc(=O)c3ccc(O)cc3o2)cc1,50 µg/mL,-,-,0%
Cc1cccc(C)c1OCC(=O)N[C@@H](Cc1ccccc1)[C@H](O)C(=O)N1CSC(C)(C)[C@H]1C(=O)NCc1ccccc1,0.05 µM,-,-,86%
CC(C)(C)OC(=O)N[C@@H](Cc1ccccc1)[C@H](O)CNC[C@@H](O)[C@H](Cc1ccccc1)NC(=O)COc1ccccc1,10 µM,pH 5.5,-,>51%
CC(C)(NC(=O)CCCCCCCCCCCCCCC(=O)N[C@@H](CC(N)=O)C(=O)N[C@@H](Cc1ccccc1)C(=O)O)C(=O)N[C@@H](Cc1ccccc1)C(N)=O,1 µM,-,-,7%
O=C1OC2[C@H]3COC(=O)c4cc(O)c(O)c5c4C4C(=CC(=O)[C@@](O)(O5)C4(O)O)C(=O)O[C@@H]2[C@@H](OC(=O)c2cc(O)c(O)c4c2C2C1=CC(=O)[C@](O)(O4)C2(O)O)[C@H](OC(=O)c1cc(O)c(O)c(O)c1)O3,50 µg/mL,-,-,0%
CC(C)(CO)OC(=O)N[C@@H](Cc1ccccc1)[C@@H](O)C[C@@H](Cc1ccc(OCCN2CCOCC2)cc1)C(=O)N[C@H]1c2ccccc2C[C@H]1O,0.0025 µg/mL,-,-,54%
Cc1ccccc1CNC(=O)[C@H]1N(C(=O)[C@@H](O)[C@H](Cc2ccccc2)NC(=O)c2ccc(F)c(O)c2C)CSC1(C)C,0.05 µM,-,-,88%
O=C1CC2C(=O)Oc3cc(cc(O)c3O)C(=O)O[C@@H]3O[C@@H]4COC(=O)c5cc(O)c(O)c(c5[C@H]2C(=O)O[C@@H]2[C@H]3OC(=O)c3cc(O)c(O)cc3-c3c(cc5nc6ccccc6nc5c3O)C(=O)O[C@@H]24)O1,50 µg/mL,-,-,0%
Cc1cccc(C)c1OCC(=O)N[C@@H](Cc1ccccc1)[C@H](O)C(=O)N1CSC(C)(C)[C@H]1C(=O)NC1CCc2ccccc21,0.05 µM,-,-,64.5%
O=c1c(O[C@@H]2O[C@H](CO)[C@@H](O)[C@H](O)[C@H]2O)c(-c2ccc(O)c(O)c2)oc2cc(O)cc(O)c12,50 µg/mL,-,-,26.6%
Cc1c(O)cccc1C(=O)N[C@@H](Cc1ccccc1)[C@H](O)C(=O)N1CSC(C)(C)[C@H]1C(=O)NC12CC3CC(CC(C3)C1)C2,0.05 µM,-,-,7.1%
O=C1OC2[C@@H](CO)O[C@@H](OC(=O)c3cc(O)c(O)c(O)c3)[C@H](OC(=O)c3cc(O)c(O)c4c3[C@@H]3C1=CC(=O)C(O)(O)C3(O)O4)[C@H]2O,50 µg/mL,-,-,0%
CC[C@H](C)C(O)C(C)(O)/C=C/C1=CC2=CC(=O)[C@](C)(O)[C@H](O)[C@H]2CO1,100 µg/mL,-,-,0%
CC(C)(C)N[C@@H](Cc1ccccc1)C(=O)N[C@@H](Cc1ccccc1)[C@H](O)CNC[C@@H](O)[C@H](Cc1ccccc1)NC(=O)[C@H](Cc1ccccc1)NC(C)(C)C,10 µM,pH 5.5,-,3%
O=C1O[C@H]2[C@@H]3OC(=O)c4cc(O)c(O)c(O)c4-c4c(cc(O)c(O)c4O)C(=O)OC[C@H]2O[C@@H](OC(=O)c2cc(O)c(O)c(O)c2)[C@@H]3OC(=O)c2cc(O)c(O)c3c2[C@@H]2C1=CC(=O)[C@](O)(O3)C2(O)O,50 µg/mL,-,-,68.2%
Cc1c(O)cccc1C(=O)N[C@@H](Cc1ccccc1)[C@H](O)C(=O)N1CSC(C)(C)[C@H]1C(=O)NCc1ccc2c(c1)OCO2,0.05 µM,-,-,67.6%
C=C1OC(C(=O)O)C(/C(=C/C(=O)O)C(=O)OC2C3COC(=O)c4cc(O)c(O)c(O)c4-c4c(cc(O)c(O)c4O)C(=O)OC2C(O)C(OC(=O)c2cc(O)c(O)c(O)c2)O3)c2c1cc(O)c(O)c2O,50 µg/mL,-,-,100%
C=CCN1CC2(/C=C/c3ccccc3)CC(=O)CC(CO)(C1)C2O,250 µM,-,-,77%
CCC(C)[C@H](NC(=O)CCCCCCCCCCCCCCC(=O)N[C@@H](CC(N)=O)C(=O)N[C@@H](Cc1ccccc1)C(=O)O)C(=O)N[C@@H](CCO)C(N)=O,1 µM,-,-,8%
C[C@@H]1O[C@@H](OC[C@H]2O[C@@H](Oc3c(-c4ccc(O)cc4)oc4cc(O[C@@H]5O[C@@H](C)[C@H](O)[C@@H](O)[C@H]5O)cc(O)c4c3=O)[C@H](O)[C@@H](O)[C@H]2O)[C@H](O)[C@H](O)[C@H]1O,50 µg/mL,-,-,18.4%
Cc1c(O)cccc1C(=O)N[C@@H](Cc1ccccc1)[C@H](O)C(=O)N1CSC(C)(C)C1C(=O)NC(C)(C)c1ccccc1,0.05 µM,-,-,82.2%
CSCC[C@H](NC(=O)[C@H](C)NC(=O)[C@H](CCC(=O)O)NC(=O)[C@H](C)N)C(=O)N[C@@H](CO)C(=O)N[C@@H](CCC(N)=O)C(=O)N[C@H](C(=O)O)C(C)C,100 µM,-,BH10,<1%
Cc1c(O)cccc1C(=O)N[C@@H](Cc1ccccc1)[C@H](O)C(=O)N1CSC(C)(C)[C@H]1C(=O)NC(C)(C)C,0.05 µM,-,-,87.6%
Cc1ccccc1CNC(=O)[C@H]1N(C(=O)[C@@H](O)[C@H](Cc2ccccc2)NC(=O)c2cccc(N)c2Cl)CSC1(C)C,0.05 µM,-,-,91%

Repeating the final 2 entries:

compound | tested at | conditions | strain or isolate | value
Cc1c(O)cccc1C(=O)N[C@@H](Cc1ccccc1)[C@H](O)C(=O)N1CSC(C)(C)[C@H]1C(=O)NC(C)(C)C | 0.05 µM | - | - | 87.6%
Cc1ccccc1CNC(=O)[C@H]1N(C(=O)[C@@H](O)[C@H](Cc2ccccc2)NC(=O)c2cccc(N)c2Cl)CSC1(C)C | 0.05 µM | - | - | 91%